A mixed list of measured activities; the numbers were collected in NIAID ChemDB.

All rows: growth or infection tests; species: HIV-1; cell line: MT-2; read-out: EC50

Blank or dashed fields: not listed here. ECn is the concentration giving n% inhibition of infection, replication or growth. Conditions beyond the fields shown may differ between rows.

SMILES,strain or isolate,changes,method,setting,value
C#C[C@@]1(CO)C=C[C@H](n2cc(C)c(=O)[nH]c2=O)O1,Clinical isolate,D67N/T69N/K70R/A98G/M184V/G190S/T215F/K219Q,recombinant virus assay,-,4.199 µM
CC(C)C1=C2C3CCC4[C@@]5(C)CC[C@H](OC(=O)CC(C)(C)C(=O)O)C(C)(C)C5CC[C@@]4(C)[C@]3(C)CC[C@@]2(NC(=O)OCC2CCCN(C)C2)CC1=O,IIIB,-,RT activity,30% human serum,<0.199 µM
Cc1cc(F)cc(N(C)C(=O)[C@H](Cc2ccccc2)NC(=O)NS(=O)(=O)N[C@@H](Cc2ccccc2)C(=O)N(C)c2cc(C)cc(F)c2)c1,NL4-3,-,luciferase,-,3.91 µM
CC(C)C1=C2C3CCC4[C@@]5(C)CC[C@H](OC(=O)CC(C)(C)C(=O)O)C(C)(C)C5CC[C@@]4(C)[C@]3(C)CC[C@@]2(NC(=O)N2CCC(N(C)C(=O)OC(C)(C)C)CC2)CC1=O,IIIB,-,RT activity,30% human serum,<0.199 µM
Cc1ccc(OCCNc2ccc(-c3cnc(C)c([C@H](OC(C)(C)C)C(=O)O)c3N3CCC(C)(C)CC3)cn2)cc1,NL4-3,-,luminescence,-,0.002 µM
CC(C)C1=C2[C@H]3CC[C@@H]4[C@@]5(C)CC[C@H](OC(=O)[C@H]6C[C@@H](C(=O)O)C6(C)C)C(C)(C)[C@@H]5CC[C@@]4(C)[C@]3(C)CC[C@@]2([C@@H](O)CNC[C@H](CO)NC(=O)c2ccc(Cl)cc2)CC1=O,92HT599,-,p24 / ELISA,-,<1 µM
COCCCCOc1ccc(-c2cnc(C)c([C@H](OC(C)(C)C)C(=O)O)c2N2CCC(C)(C)CC2)nc1,NL4-3,-,luminescence,-,0.0027 µM
CC(C)C1=C2[C@H]3CC[C@@H]4[C@@]5(C)CC[C@H](OC(=O)[C@H]6C[C@@H](C(=O)O)C6(C)C)C(C)(C)[C@@H]5CC[C@@]4(C)[C@]3(C)CC[C@@]2(CC(=O)NC2(CNC(=O)c3ccc(Cl)cc3)CCC2)CC1=O,92HT599,-,p24 / ELISA,-,<1 µM
COc1ccc(N(C)C(=O)[C@H](Cc2ccccc2)NC(=O)NS(=O)(=O)N[C@@H](Cc2ccccc2)C(=O)N2CCCC2)cc1,NL4-3,-,luciferase,-,2.04 µM
CCNC(=O)N[C@@]12CC[C@]3(C)[C@H](CC[C@@H]4[C@@]5(C)CC[C@H](OC(=O)CC(C)(C)C(=O)O)C(C)(C)[C@@H]5CC[C@]43C)C1=C(C(C)C)C(=O)C2,IIIB,-,RT activity,30% human serum,<0.199 µM
Cc1ncc(-c2ccc(NCCOc3ccccc3)nc2)c(N2CCC(C)(C)CC2)c1[C@H](OC(C)(C)C)C(=O)O,NL4-3,-,luminescence,-,0.004 µM
CC(C)C1=C2[C@H]3CC[C@@H]4[C@@]5(C)CC[C@H](OC(=O)CC(C)(C)C(=O)O)C(C)(C)[C@@H]5CC[C@@]4(C)[C@]3(C)CC[C@@]2(NC(=O)c2cccc(F)c2)CC1=O,IIIB,-,RT activity,30% human serum,<0.199 µM
COc1ccc(C(=O)NC(C)(C)CNCC[C@@]23CC[C@]4(C)[C@H](CC[C@@H]5[C@@]6(C)CC[C@H](OC(=O)[C@H]7C[C@@H](C(=O)O)C7(C)C)C(C)(C)[C@@H]6CC[C@]54C)C2=C(C(C)C)C(=O)C3)cc1,92HT599,-,p24 / ELISA,-,<1 µM
CC(C)C1=C2C3CCC4[C@@]5(C)CC[C@H](OC(=O)CC(C)(C)C(=O)O)C(C)(C)C5CC[C@@]4(C)[C@]3(C)CC[C@@]2(NC(=O)Cc2ccccc2)CC1=O,IIIB,-,RT activity,30% human serum,<0.199 µM
CN(C(=O)[C@H](Cc1cc(F)cc(F)c1)NC(=O)NS(=O)(=O)N[C@@H](Cc1cc(F)cc(F)c1)C(=O)N(C)c1ccc(C(F)F)nc1)c1ccc(C(F)F)nc1,NL4-3,-,luciferase,-,0.39 µM
CC(C)C1=C2[C@H]3CC[C@@H]4[C@@]5(C)CC[C@H](OC(=O)[C@H]6C[C@@H](C(=O)O)C6(C)C)C(C)(C)[C@@H]5CC[C@@]4(C)[C@]3(C)CC[C@@]2(CCNCC2(NC(=O)c3ccc(Cl)cc3)CC2)CC1=O,92HT599,-,p24 / ELISA,-,<1 µM
Cc1cccc(C(=O)N[C@@]23CC[C@]4(C)[C@H](CC[C@@H]5[C@@]6(C)CC[C@H](OC(=O)CC(C)(C)C(=O)O)C(C)(C)[C@@H]6CC[C@]54C)C2=C(C(C)C)C(=O)C3)c1,IIIB,-,RT activity,30% human serum,<0.199 µM
CCOCCOc1ccc(-c2cnc(C)c([C@H](OC(C)(C)C)C(=O)O)c2N2CCC(C)(C)CC2)nc1,NL4-3,-,luminescence,-,0.0033 µM
CC(C)C1=C2[C@H]3CC[C@@H]4[C@@]5(C)CC[C@H](OC(=O)[C@H]6C[C@@H](C(=O)O)C6(C)C)C(C)(C)[C@@H]5CC[C@@]4(C)[C@]3(C)CC[C@@]2([C@@H](O)CN(CCN(C)C)Cc2ccncn2)CC1=O,92HT599,-,p24 / ELISA,-,<1 µM
Cc1noc(C(=O)N[C@@]23CC[C@]4(C)C(CCC5[C@@]6(C)CC[C@H](OC(=O)CC(C)(C)C(=O)O)C(C)(C)C6CC[C@]54C)C2=C(C(C)C)C(=O)C3)n1,IIIB,-,RT activity,30% human serum,<0.199 µM
CC(C)C1=C2[C@H]3CC[C@@H]4[C@@]5(C)CC[C@H](OC(=O)[C@H]6C[C@@H](C(=O)O)C6(C)C)C(C)(C)[C@@H]5CC[C@@]4(C)[C@]3(C)CC[C@@]2(CCNC(=O)c2ccccn2)CC1=O,92HT599,-,p24 / ELISA,-,<1 µM
CC(C)C1=C2C3CCC4[C@@]5(C)CC[C@H](OC(=O)CC(C)(C)C(=O)O)C(C)(C)C5CC[C@@]4(C)[C@]3(C)CC[C@@]2(NC(=O)NC(C)c2ccccn2)CC1=O,IIIB,-,RT activity,30% human serum,<0.199 µM
COc1ccc(N(C)C(=O)[C@H](Cc2ccccc2)NC(=O)c2cc(C)cc(C(=O)N[C@@H](Cc3ccccc3)C(=O)N(C)c3ccc(OC)cc3)c2)cc1,NL4-3,-,luciferase,-,0.05 µM
C[C@H](Cn1cnc2c(N)ncnc21)OCP(=O)(O)O,Clinical isolate,K103N/Y188L,recombinant virus assay,-,0.0028 µM
Cc1ncc(-c2ccc(O[C@H](C)COc3ccccc3)nc2)c(N2CCC(C)(C)CC2)c1[C@H](OC(C)(C)C)C(=O)O,NL4-3,-,luminescence,-,0.0024 µM
COc1ccc(N(C)C(=O)[C@H](Cc2ccccc2)NC(=O)Cc2cn(CC(=O)N[C@@H](Cc3ccccc3)C(=O)N(C)c3ccc(OC)cc3)c3ccccc23)cc1,NL4-3,-,luciferase,-,0.61 µM
CC(C)C1=C2C3CCC4[C@@]5(C)CC[C@H](OC(=O)CC(C)(C)C(=O)O)C(C)(C)C5CC[C@@]4(C)[C@]3(C)CC[C@@]2(NC(=O)NC(C)(C)C)CC1=O,IIIB,-,RT activity,30% human serum,<0.199 µM
CCC(F)COc1ccc(-c2cnc(C)c([C@H](OC(C)(C)C)C(=O)O)c2N2CCC(C)(C)CC2)nc1,NL4-3,-,luminescence,-,0.0043 µM

Repeating the first 3 entries:

SMILES | strain or isolate | changes | method | setting | value
C#C[C@@]1(CO)C=C[C@H](n2cc(C)c(=O)[nH]c2=O)O1 | Clinical isolate | D67N/T69N/K70R/A98G/M184V/G190S/T215F/K219Q | recombinant virus assay | - | 4.199 µM
CC(C)C1=C2C3CCC4[C@@]5(C)CC[C@H](OC(=O)CC(C)(C)C(=O)O)C(C)(C)C5CC[C@@]4(C)[C@]3(C)CC[C@@]2(NC(=O)OCC2CCCN(C)C2)CC1=O | IIIB | - | RT activity | 30% human serum | <0.199 µM
Cc1cc(F)cc(N(C)C(=O)[C@H](Cc2ccccc2)NC(=O)NS(=O)(=O)N[C@@H](Cc2ccccc2)C(=O)N(C)c2cc(C)cc(F)c2)c1 | NL4-3 | - | luciferase | - | 3.91 µM